A mixed list of measured activities; the numbers were collected in NIAID ChemDB.

All rows: whole-cell or culture tests; species: Herpes simplex virus 2

An empty or dashed field is not shown. Rows are shuffled and stem from different studies. Percent inhibition refers to the dose given; in toxicity tests it is the harm to the cells. ECn: concentration that inhibits the pathogen or its effect by n%.

smiles | dose | method | read-out | strain | cell line | result
COC(=O)C1(C)CCC[C@]2(C)c3cc(OC)c(C=O)cc3CC[C@@H]12 | 100 µM | plaque count | inhibition |  | VERO | 100%
O=C(O)CP(=O)(O)O | 71.4 µM | cytopathic effect | inhibition | TK- | VERO | >25%
Nc1nc(=O)n([C@H]2O[C@@H](CO)C[C@H]2F)cc1Cl |  |  | EC50 |  | VERO | >100 µM
CCn1cc(C(N)=O)c(=O)c2ccc(-c3ccc([N+](=O)[O-])cc3)cc21 |  | plaque count | EC50 |  | VERO | >100 µg/mL
CCOC(=O)P(=O)(OC)OC[C@H]1O[C@@H](n2cc(CCCl)c(=O)[nH]c2=O)C[C@@H]1O | 227 µM | cytopathic effect | inhibition | K979 | VERO | >25%
O=c1[nH]cnc2c1ncn2[C@@H]1O[C@@H](CO)C[C@@H]1F |  |  | EC50 |  | VERO | >100 µM
O=C(CP(=O)(O)O)O[C@H]1C[C@H](n2cc(CCCl)c(=O)[nH]c2=O)O[C@@H]1CO | 242 µM | cytopathic effect | inhibition | K979 | VERO | >25%
CCn1cc2c(=O)n(C)nc-2c2ccc(-c3ccncc3)cc21 |  | plaque count | EC50 |  | VERO | >3.1 µg/mL
O=C(O)P(=O)(O)O | 100 µM | plaque count | inhibition | 91075 | SIRC | 91%
O=c1c(O)c(-c2ccc(O)c(O)c2)oc2cc(O)cc(O)c12 | 60 µg/mL |  | inhibition |  | VERO | 65%
O=c1[nH]c(=O)n([C@H]2C[C@H](O)[C@@H](CO)O2)cc1I | 2.8 µM | cytopathic effect | inhibition | K979 | VERO | >25%
COc1cc2c(cc1-c1cc3cc4ccoc4cc3oc1=O)OCO2 | 50 µg/mL | plaque count | inhibition | 186 | VERO | 23.7%
O=c1[nH]c(=O)n([C@@H]2O[C@@H](CO)C[C@H]2F)cc1Br |  |  | EC50 |  | VERO | >100 µM
O=C(CP(=O)(O)O)OC[C@H]1O[C@@H](n2cc(CCCl)c(=O)[nH]c2=O)C[C@@H]1O | 72.7 µM | cytopathic effect | inhibition | TK- | VERO | >25%
O=c1[nH]c(=O)n([C@H]2O[C@@H](CO)C[C@H]2F)cc1I |  |  | EC50 |  | VERO | >100 µM
O=C1c2cc3ccoc3cc2O[C@@H]2COc3cc4c(cc3[C@H]12)OCO4 | 50 µg/mL | plaque count | inhibition | 186 | VERO | 24.4%
O=c1[nH]c(=O)n([C@H]2O[C@@H](CO)C[C@H]2F)cc1F |  |  | EC50 |  | VERO | >100 µM
CCn1c(C)c(C(N)=O)c(=O)c2ccc(-c3ccncc3)cc21 |  | plaque count | EC50 |  | VERO | >50 µg/mL
O=c1[nH]c(=O)n([C@H]2O[C@@H](CO)C[C@H]2F)cc1Cl |  |  | EC50 |  | VERO | >51 µM
Nc1nc2c(ncn2COCCO)c(=O)[nH]1 | 132 µM | cytopathic effect | inhibition | TK- | VERO | >25%

For reference, 3 entries again:

smiles | dose | method | read-out | strain | cell line | result
O=C(O)P(=O)(O)O | 100 µM | plaque count | inhibition | 91075 | SIRC | 91%
O=c1c(O)c(-c2ccc(O)c(O)c2)oc2cc(O)cc(O)c12 | 60 µg/mL |  | inhibition |  | VERO | 65%
O=C1c2cc3ccoc3cc2O[C@@H]2COc3cc4c(cc3[C@H]12)OCO4 | 50 µg/mL | plaque count | inhibition | 186 | VERO | 24.4%